Data from paper PMC10869273.

Each substance was assayed against HA H4 Hubei (A/swine/Hubei/06/2009(H4N1)) (influenza A virus A/swine/Hubei/06/2009(H4N1)) (assay: BLI).
For MEDI8852 UCA VH K58S-V65P IgG, the Kd was 80 nM. In the case of MEDI8852 VH D27F Fab, the Kd is reported as 1.1 nM. MEDI8852 VH E65P Fab gave a Kd of 0.4 nM. Work on MEDI8852 VH M117Y Fab yielded a Kd of 0.43 nM. In the case of MEDI8852 VH N74S Fab, the Kd is reported as 0.61 nM. In the case of MEDI8852 VH S44G Fab, the Kd is reported as 0.66 nM. For MEDI8852 VH T53I Fab, the Kd was 0.72 nM. For MEDI8852 VL G95P Fab, the Kd was 0.94 nM. Substance MEDI8852 VL L29V Fab has a Kd of 5.2 nM. Work on MEDI8852 VL T25A Fab yielded a Kd of 1.7 nM. Substance MEDI8852 VL T33L Fab has a Kd of 3.6 nM.

Each substance was assayed against HA H7 HK17 (A/Hong Kong/125/2017(H7N9)) (influenza A virus A/Hong Kong/125/2017(H7N9)) (assay: BLI).
MEDI8852 VH E65P Fab was tested, and the Kd was 0.1 nM.
